Consider ten substances from PMC3642348, “Human and Viral Golgi Anti-apoptotic Proteins (GAAPs) Oligomerize via Different Mechanisms and Monomeric GAAP Inhibits Apoptosis and Modulates Calcium*^([image sbox.jpg])” (2013).

Assay [1] concerns the target vGAAP CXS (all cysteines mutated to serines), C-terminally HA-tagged. Description: non-reducing SDS-PAGE and anti-HA immunoblot, Li-COR band quantification. The note with it: -DTT; lysates from transfected HeLa cells; parent: est. 1.6; read off a plot.
Assay [2] shares this target. Description: reducing SDS-PAGE and anti-HA immunoblot, Li-COR band quantification. Conditions: +DTT; lysates from transfected HeLa cells; parent: est. 0.020; read off a plot. (In general: In western blotting, separated proteins are transferred to a membrane and probed.)
Assay [3] concerns the target vGAAP-HA C190S. Description: non-reducing SDS-PAGE and anti-HA immunoblot, Li-COR band quantification. The note with it: -DTT; lysates from transfected HeLa cells; parent: est. 1.6; read off a plot.
Assay [4] has as its target vGAAP-HA C190S. Description: reducing SDS-PAGE and anti-HA immunoblot, Li-COR band quantification. The note with it: +DTT; lysates from transfected HeLa cells; parent: est. 0.020; read off a plot.
Assay [5] addresses vGAAP C9S/C60S, C-terminally HA-tagged. Description: non-reducing SDS-PAGE and anti-HA immunoblot, Li-COR band quantification. Conditions: -DTT; lysates from transfected HeLa cells; parent: est. 1.6; read off a plot.
Assay [6] shares this target. Description: reducing SDS-PAGE and anti-HA immunoblot, Li-COR band quantification. Conditions: +DTT; lysates from transfected HeLa cells; parent: est. 0.020; read off a plot.
Assay [7] has as its target vGAAP C9S, C-terminally HA-tagged. Description: non-reducing SDS-PAGE and anti-HA immunoblot, Li-COR band quantification. Conditions: -DTT; lysates from transfected HeLa cells; parent: est. 1.6; read off a plot.
The target is the same in assay [8]. Description: reducing SDS-PAGE and anti-HA immunoblot, Li-COR band quantification. Conditions: +DTT; lysates from transfected HeLa cells; parent: est. 0.020; read off a plot.
The target in assay [9] is vGAAP-HA C101S. Description: non-reducing SDS-PAGE and anti-HA immunoblot, Li-COR band quantification. The note with it: -DTT; lysates from transfected HeLa cells; parent: est. 1.6; read off a plot.
Assay [10] deals with vGAAP-HA C101S. Description: reducing SDS-PAGE and anti-HA immunoblot, Li-COR band quantification. The note with it: +DTT; lysates from transfected HeLa cells; parent: est. 0.020; read off a plot.
The target in assay [11] is vGAAP C60S, C-terminally HA-tagged. Description: non-reducing SDS-PAGE and anti-HA immunoblot, Li-COR band quantification. Conditions: -DTT; lysates from transfected HeLa cells; parent: est. 1.6; read off a plot.
For assay [12] the target is unchanged. Description: reducing SDS-PAGE and anti-HA immunoblot, Li-COR band quantification. Conditions: +DTT; lysates from transfected HeLa cells; parent: est. 0.020; read off a plot.
The target of assay [13] is vGAAP C60S C-terminally tagged with GFP or tandem Tomato (Tom). Description: FRET (acceptor photobleaching) in HeLa cells. The note with it: vC60S-GFP + vC60S-Tom; cells fixed and imaged 16 h after transfection; parent: est. 0.31; read off a plot.
For assay [14], the target named is vGAAP-HA C42S. Description: non-reducing SDS-PAGE and anti-HA immunoblot, Li-COR band quantification. The note with it: -DTT; lysates from transfected HeLa cells; parent: est. 1.6; read off a plot.
Assay [15] concerns the target vGAAP-HA C42S. Description: reducing SDS-PAGE and anti-HA immunoblot, Li-COR band quantification. Conditions: +DTT; lysates from transfected HeLa cells; parent: est. 0.020; read off a plot.
The target in assay [16] is vGAAP C9S/C60S C-terminally tagged with GFP or tandem Tomato (Tom). Description: FRET (acceptor photobleaching) in HeLa cells. Conditions: vC9+60S-GFP + vC9+60S-Tom; cells fixed and imaged 16 h after transfection; parent: est. 0.31; read off a plot.
Assay [17] concerns the target vGAAP C9S C-terminally tagged with GFP or tandem Tomato (Tom). Description: FRET (acceptor photobleaching) in HeLa cells. Conditions: vC9S-GFP + vC9S-Tom; cells fixed and imaged 16 h after transfection; parent: est. 0.31; read off a plot.

Regarding “viral GAAP (vGAAP), C-terminally HA-tagged C9S; C42S; C60S; C101S; C190S”, the other: Dimer/Monomer ratio in assay [1] amounted to 0.0095; in assay [2], 0.01.
“viral GAAP (vGAAP), C-terminally HA-tagged C190S”: the values for the other: Dimer/Monomer ratio with vGAAP-HA C190S [3] and in the assay with vGAAP-HA C190S [4] were 1.9 and 0.024, respectively.
As to “viral GAAP (vGAAP), C-terminally HA-tagged C9S; C60S”, the results for the other: Dimer/Monomer ratio in [5] and in [6] were 0.017 and 0.009, respectively.
With “viral GAAP (vGAAP), C-terminally HA-tagged C9S”, the other: Dimer/Monomer ratio in [7] came to 0.22; in [8] it was 0.017.
With “viral GAAP (vGAAP), C-terminally HA-tagged C101S”, the other: Dimer/Monomer ratio was found to be 1.4 with vGAAP-HA C101S [9] and 0.029 in the assay with vGAAP-HA C101S [10].
Turning to “viral GAAP (vGAAP), C-terminally HA-tagged C60S”, the values for the other: Dimer/Monomer ratio in assay [11] and in assay [12] were 0.85 and 0.012, respectively.
“vGAAP C-terminally tagged with GFP or tandem Tomato (Tom) C60S”: the other: FRET efficiency in assay [13] amounted to 0.05.
For “viral GAAP (vGAAP), C-terminally HA-tagged C42S”, the other: Dimer/Monomer ratio in the assay with vGAAP-HA C42S [14] turned out to be 3.2; with vGAAP-HA C42S [15], 0.022.
For the substance “vGAAP C-terminally tagged with GFP or tandem Tomato (Tom) C9S; C60S”, in assay [16], the other: FRET efficiency was 0.073.
Consider “vGAAP C-terminally tagged with GFP or tandem Tomato (Tom) C9S”, for which the other: FRET efficiency in assay [17] is 0.046.
